The structures appear in SMILES notation. Read-outs that look alike come from different tables or passages of the source.

Chains of the proteins cited; added tags and fusions are not shown. Residues count along the entry.
UniProt P03303, 1538-1719 limits assumed: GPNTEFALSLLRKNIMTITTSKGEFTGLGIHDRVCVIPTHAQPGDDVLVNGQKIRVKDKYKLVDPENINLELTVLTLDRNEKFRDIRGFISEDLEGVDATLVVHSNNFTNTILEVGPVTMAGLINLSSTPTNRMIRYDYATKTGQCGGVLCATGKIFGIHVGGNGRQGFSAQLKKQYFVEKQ

For test [1], the system named is human beta-coronavirus OC43. In words: OC43 Coronavirus Assay in HeLa Cells. The conditions noted are these: 6 days at 33° C.
For test [2], the target named is 3CLpro (Severe acute respiratory syndrome coronavirus 2, UniProt P0DTD1). In words: SARS-CoV-2 3CLpro protease assay (duplex, SAMDI-MS). The format is biochemical.
Test [3] deals with SARS-CoV-2-GHB-03021/2020. In words: SARS-CoV-2 Infection Model in Huh7 Cells.
The target in test [4] is HRV3C (Human rhinovirus 14, UniProt P03303). The test is described as follows: HRV3C protease assay (duplex, SAMDI-MS).
Test [5] concerns SARS-CoV-2-GHB-03021/2020. The test is described as follows: SARS-CoV-2 Infection Model in VeroE6 Cells. Format: cell-based. Conditions: read-out: VeroE6 + CP (EC50); Vero E6-eGFP cells with MDR1-inhibitor CP-100356 0.5 μM, 4 days p.i.; numeric bounds.
Setting [6] is: read-out: SARS-Cov-2 IC50, 30 mins preincubation, bound.
Where [7] appears, read: read-out: Huh-7 (EC50), SARS-CoV-2, day 4 p.i., MTS, numeric bounds.
Setting [8] is: read-out: HRV IC50, 30 mins preincubation, bound.
The mark [9] stands for this setting: read-out: SARS-Cov-2 IC50, 30 mins preincubation, class symbols.
[10] abbreviates: read-out: Huh-7 (EC50), SARS-CoV-2, day 4 p.i., MTS, class symbols.

Regarding `COc1cccc2[nH]c(C(=O)N3C[C@@H]4CCC[C@@H]4[C@H]3C(=O)N[C@@H](C[C@H]3CC(C)(C)NC3=O)C(=O)COCc3ccccc3)cc12`, the EC50 was > 10 µM in test [1] (bound), > 50 µM in test [3] (setting [7]) and > 50 µM in test [5]. Also, the half-maximal inhibitory concentration (IC50) in test [2] (setting [6]) and in test [4] (setting [8]) was > 10 µM each time.

As to `COc1cccc2[nH]c(C(=O)N3C[C@@H]4CCC[C@@H]4[C@H]3C(=O)N[C@@H](C[C@@H]3CCNC3=O)C(=O)C3CCCO3)cc12` (single isomer, unassigned) [69_A], the figures for the EC50 in test [1] (class symbols) and in test [3] (setting [10]) were 1 to 10 µM and 10 to 100 µM, respectively. The concentration for half-maximal inhibition (IC50) in test [2] (setting [9]) was 0.2 to 2 µM; in test [4] (setting [8]), > 10 µM.

On to `COc1cccc2[nH]c(C(=O)N3C[C@@H]4CCC[C@@H]4[C@H]3C(=O)N[C@@H](C[C@@H]3CCNC3=O)C(=O)C(=O)N(C)Cc3ccccc3)cc12` [Compound 109A], for which the figures for the EC50 in test [1] (class symbols) and in test [3] (setting [7]) were 1 to 10 µM and > 50 µM, respectively. In addition, the IC50 in test [2] (setting [9]) is 2 to 20 µM; in test [4] (setting [8]) it was > 10 µM.

With `COc1cccc2[nH]c(C(=O)N3C[C@@H]4CCC[C@@H]4[C@H]3C(=O)N[C@@H](C[C@@H]3CCNC3=O)C(=O)C3CCCO3)cc12` (single isomer, unassigned) [69_B], the half-maximal effective concentration (EC50) in test [1] (class symbols) is 10 to 100 µM; in test [3] (setting [7]), > 100 µM. Also, the IC50 in test [2] (setting [6]) and in test [4] (setting [8]) was > 10 µM each time.

With `COc1cccc2[nH]c(C(=O)N3CC4CCCC4C3C(=O)NC(C=O)CC3CCNC3=O)cc12` (stereo not drawn), the half-maximal effective concentration (EC50) in test [1] (class symbols) was in the range of 1 to 10 µM. Moreover, the IC50 in test [2] (setting [9]) is 0.2 to 2 µM; in test [4] (read-out: HRV IC50, 30 mins preincubation, class symbols) it was 0.2 to 2 µM.

Regarding `COc1cccc2[nH]c(C(=O)N3C[C@@H]4CCC[C@@H]4[C@H]3C(=O)N[C@@H](C[C@@H]3CCNC3=O)C(=O)C(=O)N(C)Cc3ccccc3)cc12` [109B], the concentration for a half-maximal effect (EC50) in test [1] (class symbols) fell in the range of 1 to 10 µM; in test [3] (setting [10]), 10 to 100 µM. Besides, the IC50 is 0.2 to 2 µM in test [2] (setting [9]) and > 10 µM in test [4] (setting [8]).

Usually EC50 stands for the concentration giving half of the maximal effect. Usually IC50 stands for the point on the concentration scale where inhibition reaches its midpoint.

Source of the values: patent publication US11952365B2, “Anti-viral compounds” (Aligos Therapeutics, Inc., priority 2020, dated 2024).
